Measured values from several laboratories, pooled; numbers as filed in NIAID ChemDB.

All rows: tests in culture; agent: Hepatitis C virus; endpoint: inhibition

An empty or dashed field is not shown. Inhibition is in % at the dose shown (toxicity tests: loss of growth or viability). Lines come from different laboratories, so protocols vary.

smiles	dose	strain	cells	read by	value
O=c1ccn([C@@H]2O[C@H](CO)[C@@H](O)[C@H]2O)c(=O)[nH]1	50 µM		Huh7	replicon	91.2%
CC[C@H](C)C(=O)O[C@H]1C[C@@H](C)C=C2C=C[C@H](C)[C@H](CC[C@@H]3C[C@@H](O)CC(=O)O3)[C@H]21	10 µM		HUH7-K2040		~25%
NC(=O)c1ncn([C@@H]2O[C@H](CO)[C@@H](O)[C@H]2O)n1	100 µM		Ava5		89%
C[C@@]1(O)[C@H](O)[C@@H](CO)O[C@H]1n1ccc2c(N)ncnc21	10 µg/mL		HepG2-T5B	MTT	0%
Cc1ccc(Sc2c(Sc3ccc(F)cc3Cl)c3ccccc3oc2=O)cc1C	10 µM		Ava5		60.5%
CN1C(=O)C(c2c[nH]c3ccccc23)=C(c2c[nH]c3ccccc23)C1=O	1 µM		Huh7.5.1		81%
O=c1cc(Sc2ccc(F)cc2F)c2cc(F)ccc2o1	10 µM		Ava5		81%
O=C(NO)c1cc2ccccc2[nH]1	10 µM	GT1b	Huh7	luciferase / replicon	41%
O=C1c2c(O)cc(O)cc2O[C@H](c2ccc(O)c(O)c2)[C@H]1O	1 µM	G1	Huh7	PCR	39%
O=c1cc(Sc2ccccc2F)c2cc(F)ccc2o1	10 µM		Ava5		23%
Nc1ncnc2c1ncn2[C@H]1C[C@H](O)[C@@H](CO)O1	50 µM		Huh7	replicon	90.6%
CCCC(NC(=O)[C@@H]1[C@@H]2CCC[C@@H]2CN1C(=O)[C@@H](NC(=O)OC(C)C)C(C)C)C(=O)C(=O)N[C@@H](C)c1ccccc1	50 µM		Huh7	replicon	7%
Brc1ccc(Cn2ccc3nc(-c4ccccc4)nc-3c2)cc1	80 µM				50%
CC(Cc1ccc(O)c(O)c1)C(C)Cc1ccc(O)c(O)c1	35 µM	BM45-Feo	Huh7		60%
C[C@@]1(O)[C@H](O)[C@@H](CO)O[C@H]1n1cnc2c(N)ncnc21	0.5 µM	GT1b	Huh7	replicon / PCR	75%
CCCC(NC(=O)[C@@H]1C2CC[C@@H](F)C2CN1C(=O)[C@@H](NC(=O)[C@@H](NC(=O)c1cnccn1)C(C)C)C(C)C)C(=O)C(=O)NC1CC1	25 µM		Huh7	replicon	84%
COc1ccc2oc(=O)cc(Sc3ccccc3F)c2c1	10 µM		Ava5		4.5%
CCCCCCCCCCCCCCCc1cccc(O)c1C(=O)O	1 µM	JFH-1 (gt 2a)	Huh7	luciferase	10%
CCNC(=O)n1c(O)c(C2=NS(=O)(=O)c3cc(NS(C)(=O)=O)ccc32)c(=O)n1-c1ccccc1	10 µM	Genotype 4			70%
O=C1NC(=O)C(c2c[nH]c3ccccc23)=C1c1c[nH]c2ccccc12	1 µM		Huh7.5.1		70%
C[C@@]1(O)[C@H](O)[C@@H](CO)O[C@H]1c1c[nH]c2c(N)ncnc12	2 µg/mL		HepG2-T5B	MTT	6.15%
CO[C@H]1[C@@H](O)[C@@H](C)O[C@H](O[C@H]2[C@H](Oc3cccc4c(O)c5c(=O)oc6ccc(C)c7c(=O)oc(c34)c5c67)O[C@H](C)[C@H](O)[C@@H]2O)[C@@H]1O	50 µM	sg1b	Huh7-1	PCR	<75%
COc1cc2oc(=O)c(-c3ccc(O)cc3O)cc2c(OC)c1CC=C(C)C	15 µg/mL	2a	Huh7.5	microscopy / fluorescence	18.4%
Cc1cn([C@H]2C[C@H](O)[C@@H](CO)O2)c(=O)[nH]c1=O	50 µM		Huh7	replicon	95.8%
CC(C)OC(=O)[C@H](C)N[P@](=O)(OC[C@H]1O[C@@H](n2ccc(=O)[nH]c2=O)[C@](C)(F)[C@@H]1O)Oc1ccccc1	0.12 µM	1b Con1	Huh7	luciferase / replicon	66.8%
Cc1cc(C)cc(Sc2c(Sc3ccc(F)cc3Cl)c3ccccc3oc2=O)c1	10 µM		Ava5		61%
COc1c(CC=C(C)C)c(O)cc2oc(=O)c(-c3ccc(O)cc3O)cc12	20 µg/mL	2a	Huh7.5	microscopy / fluorescence	100%